Anti-infective test results gathered from many reports (values: NIAID ChemDB through PubChem).

Shared fields: growth or infection tests; organism: HIV-1

a–b is a range or a potency band. An empty or dashed field is not shown. ECn: concentration that inhibits the pathogen or its effect by n%. Neighbouring rows are from separate reports.

structure,read by,measure,cell line,changes,strain or isolate,result
COc1ncccc1NC(=O)CSc1nnnn1-c1c(C)cc(C)cc1C,p24,EC95,MT-4,,,<10 µM
O=C(N[C@H]1c2ccccc2OC[C@H]1O)[C@H](Cc1cccnc1)C[C@H](O)CN1CCN(Cc2ccn(-c3ccccc3Cl)c2)C[C@H]1C(=O)NCC(F)(F)F,p24,EC50,MT-4,PR-L10I M36I N37D M46I R57K L63P A71V G73S I84V L90M I93L,V-18C Clinical isolate,<0.031 µM
O=C1N(Cc2ccc(CO)cc2)[C@H](Cc2ccccc2)[C@H](O)[C@@H](O)[C@@H](Cc2ccccc2)N1Cc1ccc(CO)cc1,p24,EC50,PBMC,,RF,0.018 µM
Cc1cn([C@H]2C[C@H](N=[N+]=[N-])[C@@H](CO)O2)c(=O)[nH]c1=O,MTT,EC50,MT-4,,Y181C (subtype B),0.0002 µg/mL
CCCCCNc1nc(N)nc2c1[nH]c[n+]2C[C@@H](C)OCP(=O)(O)O,cytopathic effect / MTT,EC50,CEM,,IIIB,20 µg/mL
O=C(N[C@H]1c2ccccc2OC[C@H]1O)[C@H](Cc1cccnc1)C[C@H](O)CN1CCN(Cc2ccn(-c3ccccc3C(F)(F)F)c2)C[C@H]1C(=O)NCC(F)(F)F,p24,EC50,MT-4,,NL4-3 WT,<0.038 µM
Cc1ccnc2c1NC(=O)c1cccnc1N2C1CC1,plaque count,EC50,HT4 + HT4 LacZ-1,,HXB2,0.09 µM
CNC(C)[C@H]1O[C@H](O[C@@H]2[C@@H](O)[C@H](O[C@@H]3OC[C@@](C)(O)[C@@H](NC)[C@@H]3O)[C@@H](NC(=O)[C@@H](N)CCCN=C(N)N)C[C@H]2NC(=O)[C@@H](N)CCCN=C(N)N)[C@H](NC(=O)[C@@H](N)CCCN=C(N)N)[C@@H](O)[C@@H]1O,cytopathic effect / MTT,EC50,MT-4,,AOM,16 µM
CN=C1CN=C(c2ccc[nH]2)c2cc(Cl)ccc2N1,p24,EC90,Macrophage,,Ba-L-85,3–6 µM
CC(C)(C)NC(=O)[C@@H]1CN(Cc2cccnc2)CCN1C[C@@H](O)C[C@@H](Cc1ccccc1)C(=O)N[C@H]1c2ccccc2C[C@H]1O,p24,EC50,CEM + CEM-SS,,IIIB,0.007 µM
Cc1cc(C)c(-n2nnnc2SCC(=O)Nc2ccc(S(N)(=O)=O)cc2)c(C)c1,p24,EC50,MT-4,,,<10 µM
O=C(Nc1cc(S(=O)(=O)O)cc2cc(S(=O)(=O)O)c(N=Nc3ccc(N=Nc4c(S(=O)(=O)O)cc5cc(S(=O)(=O)O)cc(NC(=O)c6cccc(Cl)c6Cl)c5c4O)cc3)c(O)c12)c1ccc(Cl)cc1Cl,,EC50,CEM,,RF,0.04–0.27 µg/mL
CC(=O)c1sccc1NC(=O)CSc1nnnn1-c1c(C)cc(C)cc1C,p24,EC95,MT-4,,,<10 µM
O=C(N[C@H]1c2ccccc2OC[C@H]1O)[C@H](Cc1cccnc1)C[C@H](O)CN1CCN(Cc2ccn(-c3ccc(F)c(F)c3F)c2)C[C@H]1C(=O)NCC(F)(F)F,p24,EC95,MT-4,PR-L10I M36I N37D M46I R57K L63P A71V G73S I84V L90M I93L,V-18C Clinical isolate,≤0.008 µM
Cn1cc(C(=O)O)c(=O)c2cc(F)c(N3CC=C(c4ccccc4)CC3)c(C(F)(F)F)c21,p24,EC90,MOLT-4/M0(HIV-1(IIIB)) + MOLT-4,,IIIB,1 µM
CSC1N=S(=O)(c2ccccc2)c2ccccc2N1,cytopathic effect / XTT,EC50,CEM + CEM-SS,,IIIB,32 µM
CN(C)CCNc1nc(N)nc2c1ncn2CCOCP(=O)(O)O,cytopathic effect / MTT,EC50,CEM,,IIIB,5.5 µg/mL
Cc1cc(C)c(-n2nnnc2SCC(=O)Nc2ccc(F)cc2Br)c(C)c1,p24,EC95,MT-4,,,<10 µM
C[C@H](CC1CNC2C(N)=NC(N)NC12)OCP(=O)(O)O,cytopathic effect / MTT,EC50,MT-4,,IIIB,36.9 ± 5.7 µg/mL
Cc1cc(C)c(-n2nnnc2SCC(=O)Nc2cccc(F)c2C#N)c(C)c1,p24,EC50,MT-4,,,<10 µM
CN1N=C(N)c2cn([C@@H]3O[C@H](COP(=O)(O)O)[C@@H](O)[C@H]3O)c3ncnc1c23,XTT,EC50,CEM + CEM-SS,,214,0.08 µM
O=c1[nH]cnc2c1ncn2[C@H]1CC[C@@H](CO)O1,p24,EC50,MT-4,RT-M184V,126 3TC (RT-M184V),82 µM
c1cc(CN2CCCNCCNCCCNCC2)ccc1CN1CCCNCCNCCCNCC1,MTT,EC50,MT-4,,BCF06 (subtype O),0.004 µg/mL
CC(=O)Nc1ccc(Cl)c(NC(=O)CSc2nnnn2-c2c(C)cc(C)cc2C)c1,p24,EC50,MT-4,,,<10 µM
CN(C)CCCNc1nc(N)nc2c1ncn2CCOCP(=O)(O)O,cytopathic effect / MTT,EC50,CEM,,IIIB,13 µg/mL
O=C(O)c1cc(O)cc(O)c1N=Nc1ccc(/C=C/c2ccc(N=Nc3c(O)cc(O)cc3C(=O)O)cc2S(=O)(=O)O)c(S(=O)(=O)O)c1,cytopathic effect / XTT,EC50,AA5,,IIIB,3 µg/mL
CC(=O)c1cccc(-n2nnnc2SCC(=O)Nc2ccccc2Cl)c1,p24,EC50,MT-4,,,<10 µM
O=c1[nH]cnc2c1ncn2[C@H]1CC[C@@H](CO)O1,plaque count,EC50,HT4 + HT4 LacZ-1,RT-M184V,HXB2(184) (RT-M184V),3.54 µM
CC(C)CCC[C@@H](C)[C@H]1CC[C@H]2[C@@H]3CC[C@H]4C[C@@H](CCC=C(c5cc(Cl)c(O)c(C(=O)O)c5)c5cc(Cl)c(O)c(C(=O)O)c5)CC[C@]4(C)[C@H]3CC[C@]12C,p24 / RT activity,EC50,Macrophage,,BaL,19.7 µM
c1cc(CN2CCCNCCNCCCNCC2)ccc1CN1CCCNCCNCCCNCC1,cytopathic effect / MTT,EC50,MT-4,,RF,0.02 µM
COc1ccc(NC(=O)CSc2nnnn2-c2c(C)cc(C)cc2C)c([N+](=O)[O-])c1,p24,EC50,MT-4,,,<10 µM
O=C(N[C@H]1c2ccccc2OC[C@H]1O)[C@H](Cc1cccnc1)C[C@H](O)CN1CCN(Cc2ccn(-c3ccc(F)cc3)c2)C[C@H]1C(=O)NCC(F)(F)F,p24,EC50,MT-4,PR-L10I N37S R41K M46I I54V I62V L63P A71V V77I V82A L90M I93L,Q-60C Clinical isolate,<0.015 µM
O=S1(c2ccccc2)=NC(=S)Nc2ccccc21,cytopathic effect / XTT,EC50,CEM + CEM-SS,,G,1.13 µM